# Test system: CD8+ T lymphocytes of PBMC
# Assay: In vitro stimulation of human PBMC with peptide and rIL-2, then tetramer reagent labeling and flow analysis
# Settings: healthy HLA-A2 volunteers, summary of Table IV
sequence,measurement,value
ILMWEAVTL [JC100],individuals positive for staining with the JC100 tetramer reagent after in vitro stimulation,6 of 20
